Only a part of the results on these compounds is given; other tests are left out.
Target: TacT (T8) (Salmonella enterica, UniProt A0A0F6B8D8)
Settings: labelled compound; acetyl donor; acceptor aminoacyl-tRNA extracted from S. Typhimurium 12023 delta-tacAT

CC(=O)SCCNC(=O)CCNC(=O)[C@H](O)C(C)(C)COP(=O)(O)OP(=O)(O)OC[C@H]1O[C@@H](n2cnc3c(N)ncnc32)[C@H](O)[C@@H]1OP(=O)(O)O was tested, and the “[14C]acetyl transfer to tRNA, acid-urea PAGE autoradiography” value was “purified TacT, but not TacT^Y140F, acetylated free tRNA molecules extracted from ΔtacAT Salmonella”.

From publication PMC4942678
